Compound potency records, mixed from different reports. Data source: NIAID ChemDB in PubChem.

Shared fields: growth or infection tests; species: Hepatitis B virus

Rows are shuffled and stem from different studies. Blank or dashed fields: not listed here. Two numbers with a dash give a range or band. ECn is the concentration giving n% inhibition of infection, replication or growth. Inhibition is in % at the dose shown (toxicity tests: loss of growth or viability).

compound | cell line | dose | read-out | strain or isolate | read by | result
COCCCOc1cc2c(cc1Cl)-c1c(cc(C(=O)O)c(=O)n1C1CC1)C(C)S2 | Primary human hepatocytes |  | EC50 |  | antigen / visual reading / absorbance | 0.1–0.5 µM
COc1ccc2ccccc2c1/C=N/NC(=O)c1ccc(O)c(O)c1 | Huh7 | 10 µM | inhibition | gtA |  | >43%
CCOC(=O)[C@H](C)NP(=O)(OC[C@@H]1OC[C@H](n2cnc3c(NC4CC4)nc(N)nc32)O1)Oc1ccccc1 | AD38 |  | EC90 | Wild |  | <10 µM
COC(=O)Oc1nsnc1N1CCOCC1 | Huh7 | 10 µM | inhibition | gtA |  | >43%
C[C@H]1Cc2c(n3ncc(Cc4ccccc4)c3n(-c3ccc(-c4n[nH]c(=O)n4C)cc3)c2=O)CN1C(=O)c1ccc(Br)c(C(F)(F)F)c1 | HepG2.117 |  | EC50 |  | luminescence | ≤0.05 µM
O=C(CNC(=O)c1ccccn1)Nc1ccc(Cl)nc1Cl | HepG2.2.15 |  | EC90 |  | PCR | 15 µM
CCOC(=O)[C@H](C)NP(=O)(OC[C@@H]1OC[C@H](n2cnc3c(=O)[nH]c(N)nc32)O1)Oc1ccccc1 | AD38 |  | EC90 | Wild |  | 2 µM
CCCCCCCCCCCCCC(=O)Nc1nc(N)nc2c1ncn2[C@H]1CO[C@@H](COP(=O)(N[C@@H](C)C(=O)OCC)Oc2ccccc2)O1 | HepAD38 |  | EC90 |  | PCR | 8.8 µM
COc1ccc(C(=O)N(C)CC(=O)Nc2ccc(Cl)cc2Cl)cc1 | HepG2.2.15 |  | EC90 |  | PCR | 17 µM
CCCCCCCC(=O)Nc1nc(N)nc2c1ncn2[C@H]1CO[C@@H](CO)O1 | HepAD38 |  | EC90 |  | PCR | >10 µM
CN(C)S(=O)(=O)NCC(=O)Nc1ccc(Cl)nc1Cl | HepG2.2.15 |  | EC90 |  | PCR | >100 µM
Nc1nc(=O)c2ncn([C@@H]3O[C@H](CO)[C@@H](O)[C@H]3O)c2c(=O)[nH]1 | 2.2.15 | 10 µM | inhibition |  |  | 10%
O=C(O)c1cc2c(n(C3CC3)c1=O)-c1cc(Cl)c(OC[C@H]3COCCO3)cc1S(=O)(=O)C2 | Primary human hepatocytes |  | EC50 |  | antigen / visual reading / absorbance | 0.1–0.5 µM
CN1Cc2cc(-n3c(=O)c4c(n5ncc(Cc6ccccc6)c35)CN(C(=O)c3ccc(Br)c(Cl)c3)CC4)ccc2C1=O | HepG2.117 |  | EC50 |  | luminescence | ≤0.05 µM
C[C@@H]1Cn2c(c(C(=O)NCc3ccccc3)n(-c3ccc(OC4CC4)cc3)c2=O)CN1C(=O)c1ccc(Br)c(Cl)c1 | HepG2.117 |  | EC50 |  | PCR | 0.5–5 µM
COCCCOc1cc2c(cc1-c1ccc(C)s1)-c1c(cc(C(=O)O)c(=O)n1C1CC1)C(C)S2(=O)=O | Primary human hepatocytes |  | EC50 |  | antigen / visual reading / absorbance | >0.5 µM
O=c1c(O)c(-c2ccc(O)c(O)c2)oc2cc(O)cc(O)c12 | HepG2.2.15 | 30 µM | inhibition |  | ELISA / antigen | 75.4%
C.O=C(Nc1ccc(F)c(F)c1)c1cc(S(=O)(=O)N2CC(F)(F)C2)ccc1F | HepAD38 |  | EC90 |  | PCR | 6.3 µM
COCCCOc1cc2c(cc1C1CC1)-c1c(cc(C(=O)O)c(=O)n1C1CC1)C(C)S2(=O)=O | Primary human hepatocytes |  | EC50 |  | antigen / visual reading / absorbance | 0.1–0.5 µM
CCCCCCCC(=O)Nc1nc(N)nc2c1ncn2[C@H]1CO[C@@H](COP(=O)(N[C@@H](C)C(=O)OCC)Oc2ccccc2)O1 | HepAD38 |  | EC90 |  | PCR | ≥10 µM
CCOC(=O)c1sc(NC(=O)CSc2nnc(Cc3ccccc3)o2)c(C#N)c1C | Huh7 | 10 µM | inhibition | gtA |  | >43%
O=C(O[C@@H]1Cc2c(O)cc(O)cc2O[C@@H]1c1cc(O)c(O)c(O)c1)c1cc(O)c(O)c(O)c1 |  | 50 µM | inhibition |  | PCR | 63.4%
COc1ccc(-n2c(C(=O)NCc3ccccc3)c3n(c2=O)C[C@@H](C2CC2)N(C(=O)c2ccc(Br)c(Cl)c2)C3)cc1 | HepG2.117 |  | EC50 |  | PCR | 0.1–0.5 µM
O=C(CNC(=O)c1cccc(F)c1)Nc1ccc(Cl)nc1Cl | HepG2.2.15 |  | EC90 |  | PCR | >100 µM
Cc1nc(-c2ccc(-n3c(=O)c4c(n5ncc(Cc6ccccc6)c35)CN(C(=O)c3ccc(Br)c(C(F)(F)F)c3)[C@@H](C)C4)cc2)n[nH]1 | HepG2.117 |  | EC50 |  | luminescence | ≤0.05 µM
O=C(N/C(C(=O)N1CCCCC1)=C(/Cl)c1ccccc1)c1ccccc1 | HepG2 |  | EC90 |  |  | 10.8 µM
CNC(=O)c1ccc(-n2c(=O)c3c(n4ncc(CC(C)C)c24)CN(C(=O)c2ccc(Br)c(Cl)c2)[C@H](C)C3)cc1 | HepG2.117 |  | EC50 |  | luminescence | ≤0.05 µM
O=C(NCc1ccccc1-c1cocn1)c1c2n(c(=O)n1-c1ccc(OC3CC3)cc1)CCN(C(=O)c1ccc(Br)c(Cl)c1)C2 | HepG2.117 |  | EC50 |  | PCR | <0.1 µM
COCCCOc1cc2c(cc1N)-c1c(cc(C(=O)O)c(=O)n1C1CC1)C(C)S2(=O)=O | Primary human hepatocytes |  | EC50 |  | antigen / visual reading / absorbance | >0.5 µM
Nc1nc(N)c2ncn([C@H]3CO[C@@H](CO)O3)c2n1 | AD38 |  | EC90 | Wild |  | 113 µM
CN1CCCn2c(c3n(c2=O)CCN(C(=O)c2ccc(Br)c(Cl)c2)C3)C1=O | HepG2.2.15 |  | EC50 |  | PCR | >5 µM
CCCCCCCCCCCCCCCC(=O)Nc1nc(N)nc2c1ncn2[C@H]1CO[C@@H](CO)O1 | HepAD38 |  | EC90 |  | PCR | >10 µM

A second listing of 4 rows from above:

compound | cell line | dose | read-out | strain or isolate | read by | result
CNC(=O)c1ccc(-n2c(=O)c3c(n4ncc(CC(C)C)c24)CN(C(=O)c2ccc(Br)c(Cl)c2)[C@H](C)C3)cc1 | HepG2.117 |  | EC50 |  | luminescence | ≤0.05 µM
CN1Cc2cc(-n3c(=O)c4c(n5ncc(Cc6ccccc6)c35)CN(C(=O)c3ccc(Br)c(Cl)c3)CC4)ccc2C1=O | HepG2.117 |  | EC50 |  | luminescence | ≤0.05 µM
COCCCOc1cc2c(cc1Cl)-c1c(cc(C(=O)O)c(=O)n1C1CC1)C(C)S2 | Primary human hepatocytes |  | EC50 |  | antigen / visual reading / absorbance | 0.1–0.5 µM
CCOC(=O)[C@H](C)NP(=O)(OC[C@@H]1OC[C@H](n2cnc3c(NC4CC4)nc(N)nc32)O1)Oc1ccccc1 | AD38 |  | EC90 | Wild |  | <10 µM